Reference: US20100104550A1

Molecular target: BiP (Immunoglobulin Binding Protein) of Vero (African green monkey kidney) cells (African green monkey (Vero cells)) (UniProt P11021)
Test: cell-based or functional assay

Subtilase cytotoxin (SubAB) holotoxin (from UniProt Q6EZC3 24-141) (enzyme)
cytotoxicity endpoint titre on untransfected Vero cells (CD50/µg toxin): 200000
